PubChem BioAssay AID624099, ICCB-Longwood | 2012

- Aim: 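Knock-downs relieving repression by E2 of an HPV18 LCR luciferase reporter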 (primary screen)
- System: human C33A cervical carcinoma cells (HPV-negative) stably expressing BPV1 E2 and an HPV18 LCR luciferase reporter
- Reagent: siRNA pool against human genes, 40 nM
- Time to read-out: 72 h
- Read-out: 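Per-well luciferase luminescence, z-scored on each plate against the plate mean and SD with control wells left out, then averaged across three replicate plates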
- Reading the numbers: mean z-score and z-score: higher = stronger reporter signal, weaker E2 silencing
- Call rule: 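Hit if mean z-score reaches 2 and two or more of three replicate z-scores also reach 2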
This is an unselected part of about 21,000 reagents tested. Of all reagents, 497 (2.4%) were called active. 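Higher z means weaker E2 silencing; only reporter increases were scored, and knock-downs that hurt cell survival may mask genuine repressor factors.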

no.	gene knocked down	mean z-score	z-score, replicate A	z-score, replicate B	z-score, replicate C	call
1	LOC401087 (retired record)	0.4	0.64	-0.11	0.67	inactive
2	JTB	0.67	0.32	0.95	0.75	inactive
3	FFAR4	-1.55	-1.68	-1.52	-1.46	inactive
4	TPD52L2	0.18	0.17	0.11	0.27	inactive
5	MPPED2	1.03	0.81	1.37	0.91	inactive
6	TIMP1	-0.29	-0.3	-0.26	-0.32	inactive
7	LOC729995 (retired record)	0.31	0.46	0.12	0.34	inactive
8	NRBP1	0.68	0.29	0.67	1.07	inactive
9	PLAAT2	1.52	1.44	2.05	1.06	inactive
10	LDAH	0.66	0.92	0.29	0.76	inactive
11	DIO3	1.55	1.03	1.91	1.71	inactive
12	OR9G4	0.55	0.91	0.37	0.37	inactive
13	GAGE1	0.04	0.33	-0.19	-0.03	inactive
14	SULT1A1	0.87	0.38	0.89	1.35	inactive
15	GSX1	1.13	1.17	1.1		inactive
16	TPGS1	-1.33	-1.26	-1.2	-1.51	inactive
17	NFIX	-0.88	-0.67	-0.82	-1.14	inactive
18	LOC402564 (retired record)	0.26	0.45	0.32	0	inactive
19	KIF19BP	-0.28	-0.07	-0.62	-0.14	inactive
20	TMEM184C	-1	-1	-0.96	-1.05	inactive
21	SKAP1	1.98	2.13	2.04	1.76	inactive
22	LCE1B	-0.5	-0.36	-0.48	-0.67	inactive
23	DCAF10	0.96	0.9	0.9	1.09	inactive
24	LOC388893 (retired record)	-1.02	-1.21	-1.26	-0.59	inactive
25	RERG	0.69	0.65	0.88	0.55	inactive
26	HERC5	0.55	0.58	0.42	0.66	inactive
27	CCNH	-0.42	-0.39	-0.42	-0.44	inactive
28	VIPR1	1.27	1.57	1.13	1.1	inactive
29	ABCC12	0.61	0.54	0.63	0.66	inactive
30	SLC25A52	-0.83	-0.95	-1.04	-0.5	inactive
31	FKSG49	0.36	0.45	0.53	0.11	inactive
32	BBOX1	0.83	0.82	0.85	0.81	inactive
33	RECQL5	1.59	1.37	1.72	1.67	inactive
34	LINC02880	-1.28	-1.55	-0.92	-1.36	inactive
35	IZUMO1	0.6	0.5	0.62	0.66	inactive
36	MGAM2	1.85	1.95	1.69	1.9	inactive
37	PARL	-0.3	-0.31	-0.39	-0.21	inactive
38	KLK12	2.15	2.29	2.1	2.06	active
39	AZIN2	1.07	0.79	1.11	1.32	inactive
40	PPP1R11	-0.32	-0.43	-0.13	-0.39	inactive
41	COX7A2L	2.29	2.3	2.3	2.27	active
42	LOC283029 (retired record)	1.03	1.01	0.87	1.22	inactive
43	DPAGT1	-0.24	-0.15	-0.51	-0.08	inactive
44	MXD1	-0.14	-0.17	-0.19	-0.04	inactive
45	SKIDA1	0.38	0.07	0.68	0.38	inactive
46	TAS2R20	0.47	0.43	0.35	0.62	inactive
47	JPH4	0.19	0.1	0.02	0.44	inactive
48	SLITRK4	-0.22	-0.5	-0.45	0.3	inactive
49	HSD11B1L	0.06	-0.27	-0.02	0.46	inactive
50	SNRPN	-1.21	-1.22	-1.21	-1.2	inactive
51	MTX3	-0.55	-0.81	-0.48	-0.34	inactive
52	WWC1	-1.23	-1.49	-1.11	-1.1	inactive
53	NRSN1	-0.79	-0.6	-1.13	-0.63	inactive
54	SRSF8	0.36	0.32	0.67	0.09	inactive
55	ZNF221	0.7	0.8	0.66	0.63	inactive
56	SMARCA1	-0.59	-0.72	-0.44	-0.6	inactive
57	ST3GAL1	0.51	-0.21	0.78	0.98	inactive
58	PCDHGA1	0.9	0.89	0.98	0.82	inactive
59	APOLTP	0.46	0.38	0.43	0.57	inactive
60	CENPBD2P	-1.85	-1.65	-1.96	-1.95	inactive
61	BRSK1	1.75	1.83	1.44	1.97	inactive
62	OVCH2	2.05	2.13	1.91	2.09	active
63	LOC401845 (retired record)	-0.17	-0.29	-0.11	-0.12	inactive
64	RFNG	0.5	0.46	0.73	0.32	inactive
65	CRACDL	-0.75	-1.09	-0.39	-0.76	inactive
66	PAWR	1.79	1.87	1.98	1.53	inactive
67	TENT4A	1.27	1.51	1.3	1.01	inactive
68	LOC401440 (retired record)	-0.26	-0.32	0.06	-0.52	inactive
69	USP51	-2.67	-2.81	-2.52	-2.69	inactive
70	ST13P6	-0.45	-0.24	-0.73	-0.38	inactive
71	PDZD2	-0.37	-0.17	-0.44	-0.5	inactive
72	RNASE3	-0.11	-0.55	-0.02	0.24	inactive
73	FOXK2	1.09	1.24	1.14	0.89	inactive

Active calls, among the entries above:
gene knocked down	mean z-score	z-score, replicate A	z-score, replicate B	z-score, replicate C	call
KLK12	2.15	2.29	2.1	2.06	active
COX7A2L	2.29	2.3	2.3	2.27	active
OVCH2	2.05	2.13	1.91	2.09	active
